{
  "source": "patent US11015179B2",
  "about": "“Peptide having anti-viral effect and composition containing same” (priority 2015, dated 2021)",
  "key": {"MT-4 cells": {"test_system": "MT-4 cells", "experiment": "Cell cytotoxicity assay, MT-4 cells", "type": "cell-based, human", "settings": "up to 25 μM, 5 days", "procedure": "(§1) MT-4, 1G5 or ACH-2 cells were seeded in a 96-well microplate at a density of 1×10^4 cells/well, and incubated with increasing concentrations of PEP1 for 5 days. Cell viability was determined by colorimetry using a CellTiter96 Aqueous One Solution assay kit (Promega, Wis.) according to the manufacturer's instructions. To assess the cell protective effect of PEP1 from HIV-1-induced cell death, MT-4 cells (1×10^4) were infected with the HIV-1 virus (4×10^5 CCID50) for 5 days with or without PEP1, and subjected to a cell viability assay."}, "1G5 cells": {"test_system": "1G5 cells", "experiment": "Cell cytotoxicity assay, 1G5 cells", "type": "cell-based, human", "settings": "up to 25 μM, 5 days", "procedure": "as §1"}, "ACH-2 cells": {"test_system": "ACH-2 cells", "experiment": "Cell cytotoxicity assay, ACH-2 cells", "type": "cell-based, human", "settings": "up to 25 μM, 5 days", "procedure": "as §1"}, "HIV-1 [1]": {"test_system": "HIV-1", "procedure": "The MT-4 cells (4×10^5 cells) were infected with HIV-1 (4×10^5 50% cell culture infective dose (CCID50)) for one hour. […] After two days of incubation, images of the MT-4 cells expressing eGFP were obtained using a fluorescence microscope before harvesting the cells. To remove cell debris, the collected supernatant was subjected to centrifugation at 13,000 rpm for 3 minutes, and to measure an extracellular viral amount, p24 ELISA or RNA extraction was performed for a reverse transcription-quantitative polymerase chain reaction (RT-qPCR). Meanwhile, the cell pellets were washed with D-PBS twice, and used for a cell viability assay. […] HIV-1 replication was analyzed by p24 ELISA, and eGFP was monitored using a fluorescent microscope.\n(§2) To measure HIV-1 virus titers, HIV-1 p24 antigen capture ELISA (p24 ELISA, ABL) and RT-qPCT assay were performed according to the manufacturer's instructions. HIV-1 RNA genomes were purified from the cell culture supernatants and pellets using a QIAamp Ultrasens Virus kit (Qiagen, Hilden, Germany) according to the manufacturer's instructions. The HIV-1 RNA levels were quantified by RT-qPCR using a primer pair specific to gag of HIV-1. Glyceraldehyde phosphate dehydrogenase (GAPDH) was used as a reference gene for normalization. The following primer pairs were used for qPCR: Gag, 5′-[…]-3′ (sense, SEQ ID NO: 5) and 5′-[…]-3′ (antisense, SEQ ID NO: 6); and GAPDH, 5′-[…]-3′ (sense, SEQ ID NO: 7) and 5′-[…]-3′ (antisense, SEQ ID NO: 8). An HIV type 1 Genesig Standard kit (Primerdesign, Southampton, UK) was used to measure virus titers. The concentration of the stocked virus was 2×10^5 copies/μl."}, "[2]": {"test_system": "HIV-1-infected MT-4 cells", "experiment": "Cell protective effect from HIV-1-induced cell death in MT-4 cells", "type": "cell-based, human", "settings": "5 days", "procedure": "as §1\nIt has been known that apoptosis of HIV-infected cells occurs by an intracellular cell death mechanism."}, "HIV-1 viral mRNA": {"test_system": "HIV-1 viral mRNA", "experiment": "HIV-1 viral mRNA level by RT-qPCR in MT-4 cells", "type": "cell-based", "procedure": "as §2"}, "[3]": {"test_system": "HIV-1 Tat transactivation", "experiment": "HIV-LTR-luciferase assay in 1G5 cells transfected with Tat plasmids", "type": "cell-based", "settings": "four days", "procedure": "An HIV-1 transactivation protein (Tat) is a regulatory protein dramatically enhancing HIV-1 transcription through the interaction with the tat-transcriptional active region (TAR). […] In the present invention, as a Jurkat-derived cell line, 1G5 containing a stably-inserted HIV-LTR-luciferase construct was used.\nThe 1G5 cells were transfected with Tat plasmids. […] Four days after the infection, the transactivation of HIV-LTR was analyzed through a luciferase assay."}, "NF-κB": {"test_system": "NF-κB", "experiment": "NF-κB dual-luciferase assay in MT-4 cells", "type": "cell-based, human", "source_text": "NF-κB triggers HIV transcription by interacting with an NF-κB-binding site in HIV-LTR, and increases the activation of TAT-mediated LTR […]. In addition, Tat can directly activate NF-κB. Recently, there have been studies showing that eHSP90 can regulate various intracellular signaling pathways, including the NF-κB pathway."}, "p65 NF-κB": {"test_system": "p65 NF-κB", "experiment": "Electrophoretic mobility shift assay (EMSA) of NF-κB in MT-4 cells", "type": "cell-based, human", "settings": "nuclear fraction, 24 hours", "source_text": "(§3) NF-κB triggers HIV transcription by interacting with an NF-κB-binding site in HIV-LTR, and increases the activation of TAT-mediated LTR […]. In addition, Tat can directly activate NF-κB. Recently, there have been studies showing that eHSP90 can regulate various intracellular signaling pathways, including the NF-κB pathway. […] A similar result was obtained from ACH-2 cells latently infected with HIV-1 (FIG. 40)."}, "NF-κB (p65)": {"test_system": "NF-κB (p65)", "experiment": "NF-κB (p65) phosphorylation", "type": "cell-based, human", "source_text": "as §3"}, "HIV-1 [4]": {"test_system": "HIV-1", "settings": "MT-4 cells"}, "HIV-1 [5]": {"test_system": "HIV-1", "settings": "ACH-2 cells"}},
  "data": [
    {"smiles": "CC[C@H](C)[C@H](NC(=O)[C@H](Cc1ccccc1)NC(=O)[C@H](CCCNC(=N)N)NC(=O)[C@H](CC(C)C)NC(=O)[C@H](CCCNC(=N)N)NC(=O)[C@H](CO)NC(=O)[C@@H](NC(=O)[C@H](CC(C)C)NC(=O)[C@H](CC(C)C)NC(=O)[C@H](C)NC(=O)[C@@H]1CCCN1C(=O)[C@H](CCCNC(=N)N)NC(=O)[C@H](C)NC(=O)[C@@H](N)CCC(=O)O)[C@@H](C)O)C(=O)N1CCC[C@H]1C(=O)N[C@@H](CCCCN)C(=O)O", "note": "[PEP1, EARPALLTSRLRFIPK]", "values": [
      {"measurement": "Cytotoxicity", "setting": "MT-4 cells", "value": "did not exhibit significant cytotoxicity"},
      {"measurement": "Cytotoxicity", "setting": "1G5 cells", "value": "did not exhibit significant cytotoxicity"},
      {"measurement": "Cytotoxicity", "setting": "ACH-2 cells", "value": "did not exhibit significant cytotoxicity"},
      {"measurement": "Decrease in viral RNA level", "setting": "HIV-1 [1]; 5 μM PEP1, HIV-1-infected MT-4 cells", "value": "approximately 100 times"},
      {"measurement": "eGFP production", "setting": "HIV-1 [1]; HIV-1-infected MT-4 cells", "value": "decreased"},
      {"measurement": "Anti-HIV effect in the presence of 17-AAG", "setting": "HIV-1 [1]; MT-4 cells, 17-AAG 1 μM, p24 ELISA", "value": "eliminated the PEP1 effect"},
      {"measurement": "Inhibition of eGFP expression after anti-HSP90 antibodies", "setting": "HIV-1 [1]; MT-4 cells, fluorescence / immunoblotting", "value": "restored"},
      {"measurement": "Inhibition of HIV-1 production after anti-GAPDH antibodies (isotype control)", "setting": "HIV-1 [1]; MT-4 cells, p24 ELISA", "value": "no significant effect"},
      {"measurement": "Inhibition of HIV-1 production after anti-HSP70-neutralization antibodies", "setting": "HIV-1 [1]; MT-4 cells, p24 ELISA", "value": "partial restoration"},
      {"measurement": "Inhibition of HIV-1 production after anti-HSP90 neutralization antibodies", "setting": "HIV-1 [1]; MT-4 cells, p24 ELISA", "value": "completely restored"},
      {"measurement": "IC50", "setting": "HIV-1 [1]; read-out: mean 50% inhibitory concentration (IC50), production of viral particles, HIV-1-infected MT-4 cells, p24 ELISA", "value": "~850", "unit": "nM"},
      {"measurement": "Cell protective action from HIV-1-mediated cell death", "setting": "[2]; 5 μM, MT-4 cells", "value": "~100", "unit": "%"},
      {"measurement": "Cell protective effect", "setting": "[2]; HIV-1-infected MT-4 cells", "value": "considerable cell protective effects in a dose-dependent manner"},
      {"measurement": "Housekeeping host GAPDH mRNA synthesis", "setting": "HIV-1 viral mRNA", "value": "no significant change"},
      {"measurement": "Viral mRNA production, treated 9 hours after infection", "setting": "HIV-1 viral mRNA", "value": "effectively inhibited"},
      {"measurement": "Viral mRNA, treated 13 hours after infection", "setting": "HIV-1 viral mRNA", "value": "lost the activity to reduce viral mRNA"},
      {"measurement": "HIV-LTR luciferase activity activated by ectopic expression of Tat", "setting": "[3]", "value": "inhibits the activation of HIV-LTR luciferase activity"},
      {"measurement": "NF-κB inhibitory effect after HSP90 blocking antibodies or HSP inhibitor", "setting": "NF-κB", "value": "completely eliminated"},
      {"measurement": "NF-κB inhibitory effect after anti-GAPDH antibodies", "setting": "NF-κB", "value": "no significant effects"},
      {"measurement": "Basal NF-κB activity", "setting": "NF-κB; 24 hours", "value": "dramatically reduced"},
      {"measurement": "p65 NF-κB activation (DNA binding)", "setting": "p65 NF-κB", "value": "apparent decrease"},
      {"measurement": "NF-κB (p65) phosphorylation", "setting": "NF-κB (p65)", "value": "decrease in NF-κB (p65) phosphorylation"},
      {"measurement": "Inhibitory activity by eGFP expression when treated 12 hours after infection", "setting": "HIV-1 [4]", "value": "weakened"},
      {"measurement": "PMA-increased supernatant p24 level", "setting": "HIV-1 [5]; PMA 50 nM, 24 hours, p24 ELISA", "value": "eliminated almost all of such an effect"},
      {"measurement": "Viral genomic RNA of produced viral particles after PMA", "setting": "HIV-1 [5]; RT-qPCR, stepwise increasing concentrations", "value": "considerably reduced in a dose-dependent manner"}
    ]}
  ]
}
